For the assay, the target named is Human immunodeficiency virus type 1 integrase (Human immunodeficiency virus 1, UniProt Q7ZJM1). The assay can be described thus: Inhibition of strand transfer activity of HIV-1 integrase using [gamma-32P]-labeled DNA as substrate. The method in brief: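 Gel-based assay with radiolabelled oligonucleotide substrate and Mg2+ cofactor, measuring strand transfer by recombinant HIV-1 integrase. IC50 determined.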

On to `COC(=O)[C@@H](Nc1c(C(=O)NCc2ccc(F)cc2F)c(=O)n(O)c2ncccc12)c1ccccc1`, for which half-maximal inhibition (IC50) was put at 10 nM.

Regarding `COC(=O)[C@H](C)Nc1c(C(=O)NCc2ccc(F)cc2F)c(=O)n(O)c2ncccc12`, the midpoint of inhibition, the IC50, lay at 17 nM.
